A mixed list of measured activities; the numbers were collected in NIAID ChemDB.

All rows: target-level tests; organism: Hepatitis C virus; protein: Nonstructural protein 5B; endpoint: IC50

Lines come from different laboratories, so protocols vary. Two numbers with a dash give a range or band. Blank or dashed fields: not listed here. ICn: concentration for n% inhibition.

structure,changes,strain,read by,value
COc1c(-c2ccc3cc(NS(C)(=O)=O)ccc3c2)cc(-n2ccc(=O)[nH]c2=O)cc1C(C)(C)C,,GT 1b#1,nucleotide incorporation,0.0043 µM
O=C1CC(=O)OC(CCc2ccc3c(c2)OCO3)(C2CCCC2)C1,,,,10–50 µM
CC(=O)c1ccc(-c2ccc(C=C3SC(=S)N(c4ccc(C(=O)O)cc4)C3=O)o2)s1,,,,≤1 µM
COc1nc(Nc2ccc3[nH]ncc3c2)nc(N2CCN(CCO)CC2)n1,,,,1–10 µg/mL
C=CCOc1cc2c(C(=O)NC)c(-c3ccc(F)cc3)oc2cc1N(C)S(C)(=O)=O,,,,≤0.5 µM
CC1(c2ccc(CCC3(C4CCCC4)CC(=O)CC(=O)O3)cc2Cl)OCCO1,,,,<1 µM
CNC(=O)c1c(-c2ccc(F)cc2)oc2cc(N(Cc3nsc(Cl)n3)S(C)(=O)=O)c(OC(C)C)cc12,,,,≤0.5 µM
CC(C)NC1=NC(NC(C)C)N(CN)C(Nc2ccc3cn[nH]c3c2)=N1,,,,0.1–1 µg/mL
O=C(O)c1ccc(N2C(=O)C(=Cc3ccc(-c4nccs4)o3)SC2=S)cc1,,,,≤1 µM
CNC(=O)c1c(-c2ccc(F)cc2)oc2cc(N3CCOCC3)c(OCc3ccc(C(=O)O)cc3)cc12,,,,≤0.5 µM
Cc1cc(C)n2nc(SC3=C(O)CC(CCc4ccc(OCc5ccccc5)cc4)(C4CCCC4)OC3=O)nc2n1,,,,<1 µM
CCOC(=O)C1=CN(N2CCN(c3nc(Nc4ccc5[nH]ncc5c4)nc(OC)n3)CC2)C(SC)N=C1,,,,>10 µg/mL
C[C@@]1(O)[C@H](O)[C@@H](COP(=O)([O-])OP(=O)([O-])OP(=O)([O-])O)O[C@H]1n1cnc2c(N)nc(N)nc21,S96T,GT1b,nucleotide incorporation,2 µM
CCn1nnnc1SC1=C(O)CC(CCc2ccc(OC)cc2)(C2CCCC2)OC1=O,,,,<1 µM
CNC(=O)c1c(-c2ccc(F)cc2)oc2cc(N(C)S(C)(=O)=O)c(OCc3ccccc3OC(F)F)cc12,,,,≤0.5 µM
Cc1cc(C)cc(-c2ccc(C=C3SC(=S)N(c4ccc(C(=O)O)cc4)C3=O)o2)c1,,,,≤1 µM
CCOC(=O)C1CCN(c2nc(Nc3ccc4[nH]ncc4c3)nc(OC)n2)CC1,,,,>10 µg/mL
Cc1ccc(-c2ccc(C=C3SC(=S)N(c4ccc(C(=O)O)cc4)C3=O)o2)nc1,,,,≤1 µM
O=C(O)C(=O)/C=C(\O)c1cccc(NS(=O)(=O)c2cc(Cl)c(Cl)cc2Cl)c1,,,,0.3 µM
CC1(c2ccc(CCC3(C4CCCC4)CC(=O)CC(=O)O3)cc2F)OCCO1,,,,1–10 µM
COc1nc(NCCCN2CCOCC2)nc(Nc2ccc3cn[nH]c3c2)n1,,,,0.1–1 µg/mL
COc1cc(OC)c(CCC2(C3CCCC3)CC(O)=C(Sc3nnnn3CCN(C)C)C(=O)O2)cc1Cl,,,,<1 µM
Cc1cc(-c2ccc(C=C3SC(=S)N(c4ccc(C(=O)O)cc4)C3=O)o2)oc1C,,,,≤1 µM
CNC(=O)c1c(-c2ccc(F)cc2)oc2cc(NC)c(OC(C)C)cc12,,,,≤0.5 µM
COc1ccc(CCC2(C3CCCC3)CC(O)=C(Sc3nnnn3CCN(C)C)C(=O)O2)cc1,,,,1–10 µM
CNC1N=C(OC)N=C(Nc2ccc3cn[nH]c3c2)N1CN,,,,>10 µg/mL
CC(C)Oc1ccc(CCC2(C3CCCC3)CC(O)=C(Sc3nccs3)C(=O)O2)cc1Cl,,,,<1 µM
O=C(O)C1=CCC(=CN2C(=O)C(=Cc3ccc(-c4cc(C(F)(F)F)ccc4Cl)o3)SC2=S)C=C1,,,,≤1 µM

Again, the opening 2 rows:

structure | changes | strain | read by | value
COc1c(-c2ccc3cc(NS(C)(=O)=O)ccc3c2)cc(-n2ccc(=O)[nH]c2=O)cc1C(C)(C)C |  | GT 1b#1 | nucleotide incorporation | 0.0043 µM
O=C1CC(=O)OC(CCc2ccc3c(c2)OCO3)(C2CCCC2)C1 |  |  |  | 10–50 µM